PubChem BioAssay AID504761 – Drosophila RNAi Screening Center – 2011
Purpose: 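Fly genes whose silencing reduces dengue virus type 2 infection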 (primary screen). System: D.Mel-2 cells from Drosophila. Knock-down reagent: long dsRNA against Drosophila genes. Conditions: infection with dengue virus type 2; dose and infection time not stated. Read-out: 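Cells stained for dengue envelope protein and imaged; percent of infected cells per well on duplicate plates, ranked by infection, with stained nuclei counted for cell number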. Direction: infection score: higher = more virus-infected cells; cell count: higher = more cells in the well. Active means: 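Very low infection ranking in both replicate wells (chance probability at most 0.065), then a retest showing infection dropped 1.5-fold or more at p below 0.05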. Meaning of the calls: active = confirmed: knock-down lowers infection; inactive = not picked or not confirmed.
In all, the deposit lists about 22,000 reagents; shown is an unselected part of those that have a named target and a result. Of all reagents, 116 (0.52%) were called active. 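Calls depend on retest data that are not deposited; infection was ranked per plate without normalising between plates; the unit of the infection score is not given.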 The raw values are shown without normalisation. Unmarked entries are inactive. A plus sign joins genes that one reagent is predicted to hit. The record does not give: the amount of reagent, the time to read-out.

infection score, replicate 1 | infection score, replicate 2 | cell count, replicate 1 | cell count, replicate 2 | target gene | dsRNA
7.43 | 0.87 | 5529 | 7044 | Cyp305a1 (Cytochrome P450 305a1) | DRSC11126
9.07 | 0.8 | 5413 | 498 | betaggt-I (beta subunit of type I geranylgeranyl transferase) | DRSC03494
6.22 | 4.28 | 6508 | 7614 | Saf6 (SAGA factor-like TAF6) | DRSC00633
1.41 | 6.47 | 853 | 2580 | mAcon1 (Mitochondrial aconitase 1) | DRSC01853
14.4 | 16.9 | 5872 | 5470 | mAcon1 (Mitochondrial aconitase 1) | DRSC24875
4.58 | 2.21 | 5870 | 6341 | C15 | DRSC13495
2.28 | 10.2 | 5912 | 6532 | CG42527 (retired record) + Hr4 | DRSC23080
6.32 | 1.85 | 6452 | 6806 | CG42527 (retired record) + Hr4 | DRSC23251
12.9 | 5.65 | 6177 | 6231 | CG42527 (retired record) + Hr4 | DRSC27857
11.4 | 22.8 | 5078 | 4086 | CG42527 (retired record) + Hr4 | DRSC28298
1.94 | 5.63 | 6433 | 6534 | CG14605 | DRSC12549
17.8 | 14.1 | 5625 | 4694 | CG14605 | DRSC29195
0.61 | 4.75 | 6280 | 6040 | CG13045 | DRSC09926
1.93 | 9.61 | 6179 | 6097 | CG13045 | DRSC25454
6.09 | 0.49 | 5979 | 6474 | P5cr (Pyrroline 5-carboyxlate reductase) | DRSC16782
5.82 | 1.89 | 5391 | 6255 | CG13002 | DRSC19521
20 | 19 | 3085 | 4553 | CG13002 | DRSC29478
5.52 | 8.15 | 3171 | 4183 | CG12883 | DRSC14570
12.1 | 14.7 | 6505 | 3799 | CG12883 | DRSC27305
13.2 | 4.77 | 4440 | 6733 | spir (spire) | DRSC03619
4.92 | 1.29 | 6386 | 6580 | spir (spire) | DRSC24744
6.51 | 9.07 | 4883 | 3749 | RpL13 (Ribosomal protein L13) | DRSC03416
5.3 | 8.08 | 7057 | 6644 | Delta | DRSC16648
1.21 | 1.21 | 6602 | 6592 | Delta | DRSC24112
18.8 | 27.4 | 1657 | 5800 | C1GalTA (Core 1 Galactosyltransferase A) | DRSC03246

Sorted by “cell count, replicate 1” (highest first): 5 of the entries above.
infection score, replicate 1 | infection score, replicate 2 | cell count, replicate 1 | cell count, replicate 2 | target gene | dsRNA
12.1 | 14.7 | 6505 | 3799 | CG12883 | DRSC27305
4.92 | 1.29 | 6386 | 6580 | spir (spire) | DRSC24744
6.51 | 9.07 | 4883 | 3749 | RpL13 (Ribosomal protein L13) | DRSC03416
13.2 | 4.77 | 4440 | 6733 | spir (spire) | DRSC03619
5.52 | 8.15 | 3171 | 4183 | CG12883 | DRSC14570

More results:
infection score, replicate 1 | infection score, replicate 2 | cell count, replicate 1 | cell count, replicate 2 | target gene | dsRNA
7.21 | 10.7 | 6632 | 6146 | Tret1-2 (Trehalose transporter 1-2) | DRSC07117
13.4 | 16.8 | 5538 | 3255 | Tret1-2 (Trehalose transporter 1-2) | DRSC28985
9.86 | 8.54 | 2242 | 2727 | dop (drop out) | DRSC10655
14.4 | 2.1 | 5619 | 1384 | dop (drop out) | DRSC29525
4.41 | 2.71 | 6605 | 6741 | CG32988 | DRSC02692
– | – | 437 | 364 | Pvf2 (PDGF- and VEGF-related factor 2) | DRSC00968
3.48 | – | 1722 | 431 | Pvf2 (PDGF- and VEGF-related factor 2) | DRSC02283
4.35 | 0.62 | 1103 | 485 | EbpIII (Ejaculatory bulb protein III) | DRSC04638
2.11 | 1.03 | 6869 | 6108 | Gdap1 | DRSC10437
– | 8.64 | 373 | 6363 | Gdap1 | DRSC28286
2.18 | 1 | 6601 | 6721 | LysRS (Lysyl-tRNA synthetase) | DRSC17824
6.88 | 5.05 | 5318 | 5401 | LysRS (Lysyl-tRNA synthetase) | DRSC25618
7.42 | 4.98 | 6694 | 6870 | CG18473 | DRSC16381
8.97 | 15.5 | 4936 | 5613 | CG5334 | DRSC19941
5.24 | 8.38 | 5842 | 5595 | CG16743 | DRSC24981
1.5 | 4.95 | 5336 | 6226 | dor (deep orange) | DRSC18765
7.78 | 7.75 | 6503 | 6546 | dor (deep orange) | DRSC27554
15.8 | 5.94 | 3726 | 6207 | CG3568 | DRSC18312
2.79 | 15.5 | 6782 | 7232 | CG3568 | DRSC27793
7.4 | 5.81 | 6730 | 6985 | mbm + CG11555 | DRSC00315
6.09 | 16.2 | 6684 | 6720 | CG2218 | DRSC15428
5.46 | 31.9 | 6478 | 5153 | CG2218 | DRSC28089
5.87 | 0.55 | 5931 | 6197 | CG13717 (retired record) | DRSC08116
3.56 | 4.19 | 5925 | 5985 | CG13717 (retired record) | DRSC08324
5.21 | 11.9 | 5832 | 6068 | CG13717 (retired record) | DRSC21337
1.82 | 5.3 | 5936 | 6419 | CG13717 (retired record) | DRSC23087
18.4 | 19.9 | 4210 | 6279 | CG13717 (retired record) | DRSC28552
3.43 | 4.94 | 6901 | 6950 | CG15638 | DRSC01875
14.2 | 6.01 | 5760 | 6575 | Trissin | DRSC14994
21.2 | 12.4 | 6160 | 6800 | CG3907 | DRSC04432
0.65 | 1.3 | 6172 | 6676 | Gr92a (Gustatory receptor 92a) | DRSC21631
19.4 | 16.4 | 5805 | 5619 | Prat (Phosphoribosylamidotransferase) | DRSC16797
1.75 | 4.37 | 6241 | 6431 | lncRNA:CR32385 (long non-coding RNA:CR32385) | DRSC22966
